Measured values: ChEMBL document CHEMBL1795211, “Evaluation of NTF1836 as an inhibitor of the mycothiol biosynthetic enzyme MshC in growing and non-replicating Mycobacterium tuberculosis” (Bioorg Med Chem, 2011)

How the values were obtained:
[1] = target: T1, L-cysteine:1D-myo-inositol 2-amino-2-deoxy-alpha-D-glucopyranoside ligase (Mycobacterium tuberculosis) (UniProt P9WJM9); test: Inhibition of MshC in Mycobacterium tuberculosis Erdman ATCC 35801 assessed as reduction of mycothiol production at 20 to 75 uM after 7 days by HPLC based fluorescence assay relative to control; settings: Mycobacterium tuberculosis str. Erdman
T1 sequence (whole entry): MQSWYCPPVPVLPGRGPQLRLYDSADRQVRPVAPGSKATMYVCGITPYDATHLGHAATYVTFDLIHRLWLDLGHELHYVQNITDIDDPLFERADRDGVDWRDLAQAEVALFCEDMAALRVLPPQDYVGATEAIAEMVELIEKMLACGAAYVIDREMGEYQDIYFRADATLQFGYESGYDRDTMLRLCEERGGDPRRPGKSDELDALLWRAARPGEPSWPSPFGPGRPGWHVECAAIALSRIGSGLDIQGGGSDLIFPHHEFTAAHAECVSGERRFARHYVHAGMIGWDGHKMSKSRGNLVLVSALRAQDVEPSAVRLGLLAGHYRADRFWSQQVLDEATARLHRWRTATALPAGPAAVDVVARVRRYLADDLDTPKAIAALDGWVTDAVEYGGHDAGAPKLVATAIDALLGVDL

[2] = target: T1, L-cysteine:1D-myo-inositol 2-amino-2-deoxy-alpha-D-glucopyranoside ligase (Mycobacterium tuberculosis); test: Inhibition of MshC in Mycobacterium tuberculosis Erdman ATCC 35801 assessed as increase of GlcN-Ins accumulation at 20 to 75 uM after 7 days by HPLC based fluorescence assay relative to control; settings: Mycobacterium tuberculosis str. Erdman

**Q.** Which results are given for `CN(CCCNC(=O)c1ccc2c(c1)N(Cc1cccc(Cl)c1)C(=O)c1ccccc1[S+]2[O-])C1CCCCC1` (configuration not stated)?
**A.** fold change (FC) [1]: 4; fold change (FC) [2]: 9
